Pooled drug test results. Numbers come from NIAID ChemDB, via PubChem.

Shared fields: tests in culture; agent: HIV-1; cell line: MT-2; endpoint: EC50

An empty or dashed field is not shown.

{"compound": "Nc1nc(NC2CC2)c2ncn([C@H]3C=C[C@@H](CO)C3)c2n1", "strain or isolate": "Clinical isolate", "mutations": "K65R M184V", "read by": "recombinant virus assay", "value": "0.8712 µM"}
{"compound": "C=C(C)[C@@H]1CC[C@]2(NC(=O)NC)CC[C@]3(C)[C@H](CC[C@@H]4[C@@]5(C)CC[C@H](OC(=O)CC(C)(C)C(=O)O)C(C)(C)[C@@H]5CC[C@]43C)[C@@H]12", "strain or isolate": "IIIB", "read by": "RT activity", "value": ">0.199 µM"}
{"compound": "CNC(=O)c1c(O)c2ncc(Cc3ccc(F)cc3)c3c2n(c1=O)C[C@](C)(C(=O)NCC(C)(C)C#N)O3", "strain or isolate": "IIIB", "read by": "ATP / luminescence", "value": "0.029 µM"}
{"compound": "CC(C)C1=C2[C@H]3CC[C@@H]4[C@@]5(C)CC[C@H](OC(=O)[C@H]6C[C@@H](C(=O)O)C6(C)C)C(C)(C)[C@@H]5CC[C@@]4(C)[C@]3(C)CC[C@@]2([C@@H](O)CNC(=O)c2ccc(Cl)cc2OCCN2CCCC2)CC1=O", "strain or isolate": "92HT599", "read by": "p24 / ELISA", "value": "<1 µM"}
{"compound": "O=C(C(=O)N1CCN(C(=O)c2cccc(Br)c2)CC1)c1c[nH]c2ccccc12", "strain or isolate": "BRU", "read by": "RT activity", "value": "<10 µM"}
{"compound": "O=C(NCc1ccc(F)cc1)c1nc2n(c(=O)c1O)CCOC21CCN(C(=O)c2ccccc2)CC1", "strain or isolate": "NL4-3", "read by": "luciferase / reporter gene", "value": "0.001–0.01 µM"}
{"compound": "CC(C)C1=C2[C@H]3CC[C@@H]4[C@@]5(C)CC[C@H](OC(=O)[C@H]6C[C@@H](C(=O)O)C6(C)C)C(C)(C)[C@@H]5CC[C@@]4(C)[C@]3(C)CC[C@@]2([C@@H](O)CNC(=O)C(C)(CCN)NC(=O)c2ccc(Cl)cc2)CC1=O", "strain or isolate": "92HT599", "read by": "p24 / ELISA", "value": "<1 µM"}
{"compound": "C=Cc1c(C)c2cc3[nH]c(cc4nc(cc5nc(cc1[nH]2)C(C)=C5CCC(=O)O)C(CCC(=O)O)=C4C)c(C)c3C=C", "strain or isolate": "IIIB", "read by": "cell fusion / fluorescence", "value": ">10 µg/mL"}
{"compound": "CC(=O)Oc1ccccc1C(=O)N1CCN(C(=O)C(=O)c2c[nH]c3ccccc23)CC1", "strain or isolate": "BRU", "read by": "RT activity", "value": "<10 µM"}
{"compound": "CS(=O)(=O)N1CCC2(C1)OCCn1c2nc(C(=O)NCc2ccc(F)cc2)c(O)c1=O", "strain or isolate": "NL4-3", "read by": "luciferase / reporter gene", "value": "0.01–0.1 µM"}
{"compound": "COc1ccc(S(=O)(=O)N(CC(C)C)C[C@@H](O)[C@H](Cc2ccccc2)NC(=O)OCO[C@H]2C[C@H]3OCC4(CC[C@H](OC)O4)[C@H]3C2)cc1", "strain or isolate": "LAI", "read by": "MTT", "value": "0.38 µM"}
{"compound": "CNC(=O)c1c(O)c2ncc(Cc3ccc(F)cc3)c3c2n(c1=O)C[C@H](CN1CCCC1)O3", "strain or isolate": "IIIB", "read by": "ATP / luminescence", "value": "0.022 µM"}
{"compound": "C[C@H](Cn1cnc2c(N)ncnc21)OCP(=O)(O)O", "strain or isolate": "Clinical isolate", "mutations": "K65R M184V", "read by": "recombinant virus assay", "value": "0.006 µM"}
{"compound": "COc1ccnc2[nH]cc(C(=O)C(=O)N3CCN(C(=O)c4ccccc4)C[C@H]3C)c12", "strain or isolate": "NL4-3", "value": "0.00294 µM"}
{"compound": "C=Cc1c(C)c2cc3nc(c(CC(=O)O)c4nc(cc5[nH]c(cc1[nH]2)c(C)c5CC)C(C)=C4C(=O)O)[C@@H](CCC(=O)O)[C@@H]3C", "strain or isolate": "IIIB", "read by": "cell fusion / fluorescence", "value": ">10 µg/mL"}
{"compound": "C=C(C)[C@@H]1CC[C@]2(NC(=O)c3ccncc3)CC[C@]3(C)[C@H](CC[C@@H]4[C@@]5(C)CC[C@H](OC(=O)CC(C)(C)C(=O)O)C(C)(C)[C@@H]5CC[C@]43C)[C@@H]12", "strain or isolate": "IIIB", "read by": "RT activity", "value": "0.2–0.999 µM"}
{"compound": "CCN(C)C(=O)C1=Cn2c(=O)c(C(=O)NCCOC)c(O)c3ncc(Cc4ccc(F)cc4)c(c32)O1", "strain or isolate": "IIIB", "read by": "ATP / luminescence", "value": "0.0061 µM"}
{"compound": "CC(C)C1=C2[C@H]3CC[C@@H]4[C@@]5(C)CC[C@H](OC(=O)[C@H]6C[C@@H](C(=O)O)C6(C)C)C(C)(C)[C@@H]5CC[C@@]4(C)[C@]3(C)CC[C@@]2([C@@H](O)CNC(=O)C(F)(CN)NC(=O)c2ccc(Cl)cc2)CC1=O", "strain or isolate": "92HT599", "read by": "p24 / ELISA", "value": "<1 µM"}
{"compound": "C=C(C)[C@@H]1CC[C@]2(NC(N)=O)CC[C@]3(C)[C@H](CC[C@@H]4[C@@]5(C)CC[C@H](OC(=O)CC(C)(C)C(=O)O)C(C)(C)[C@@H]5CC[C@]43C)[C@@H]12", "strain or isolate": "IIIB", "read by": "RT activity", "value": ">0.199 µM"}
{"compound": "Nc1ncnc2c1ncn2[C@@H]1C=C[C@H](OCP(=O)(O)O)O1", "strain or isolate": "WT", "read by": "cytopathic effect", "value": "5.9 µM"}
{"compound": "[2H]C([2H])([2H])NC(=O)c1c(O)c2ncc(Cc3ccc(F)cc3)c3c2n(c1=O)C[C@H](CN1CCN(S(C)(=O)=O)CC1)O3", "strain or isolate": "IIIB", "read by": "ATP / luminescence", "value": "0.0053 µM"}
{"compound": "O=C(NCc1ccc(F)cc1)c1nc2n(c(=O)c1O)CCOC21CCN(C(=O)OCc2ccccc2)C1", "strain or isolate": "NL4-3", "read by": "luciferase / reporter gene", "value": "0.001–0.01 µM"}
{"compound": "O=C(C(=O)N1CCN(C(=O)c2ccccc2)CC1)c1c[nH]c2cccc([N+](=O)[O-])c12", "strain or isolate": "BRU", "read by": "RT activity", "value": "<10 µM"}
{"compound": "Cc1ccc(S(=O)(=O)N2CCC3(CC2)OCCn2c3nc(C(=O)NCc3ccc(F)cc3-n3cnc(C)n3)c(O)c2=O)cc1", "strain or isolate": "NL4-3", "read by": "luciferase / reporter gene", "value": "0.001–0.01 µM"}
{"compound": "O=C(C(=O)N1CCN(C(=O)c2ccccc2)CC1)c1c[nH]c2ccc(Br)cc12", "strain or isolate": "BRU", "read by": "RT activity", "value": "<10 µM"}
{"compound": "CC(C)C1=C2[C@H]3CC[C@@H]4[C@@]5(C)CC[C@H](OC(=O)[C@H]6C[C@@H](C(=O)O)C6(C)C)C(C)(C)[C@@H]5CC[C@@]4(C)[C@]3(C)CC[C@@]2([C@@H](O)CNC(=O)c2ccc(CN3CCS(=O)(=O)CC3)cc2)CC1=O", "strain or isolate": "92HT599", "read by": "p24 / ELISA", "value": "<1 µM"}
{"compound": "COc1ccc(S(=O)(=O)N(CC(C)C)C[C@@H](O)[C@H](Cc2ccccc2)NC(=O)OCO[C@H]2C[C@H]3OC[C@@]4(CNC(=O)O4)[C@H]3C2)cc1", "strain or isolate": "LAI", "read by": "MTT", "value": "0.021 µM"}
{"compound": "O=C(O)CCC1=C(CC(=O)O)c2cc3nc(cc4[nH]c(cc5[nH]c(cc1n2)c(CC(=O)O)c5CCC(=O)O)c(CC(=O)O)c4CCC(=O)O)C(CC(=O)O)=C3CCC(=O)O", "strain or isolate": "IIIB", "read by": "cell fusion / fluorescence", "value": ">10 µg/mL"}
{"compound": "N#CCCNC(=O)c1c(O)c2ncc(Cc3ccc(F)cc3)c3c2n(c1=O)CC(CO)(CO)CO3", "strain or isolate": "IIIB", "read by": "ATP / luminescence", "value": "0.011 µM"}
{"compound": "O=C(C(=O)N1CCN(C(=O)c2ccc(F)c(Cl)c2)CC1)c1c[nH]c2ccccc12", "strain or isolate": "BRU", "read by": "RT activity", "value": "~10 µM"}
{"compound": "CC(C)C1=C2[C@H]3CC[C@@H]4[C@@]5(C)CC[C@H](OC(=O)[C@H]6C[C@@H](C(=O)O)C6(C)C)C(C)(C)[C@@H]5CC[C@@]4(C)[C@]3(C)CC[C@@]2([C@@H](O)CNC(=O)c2nc3ccccc3[nH]2)CC1=O", "strain or isolate": "92HT599", "read by": "p24 / ELISA", "value": "<1 µM"}
{"compound": "C=C(C)[C@@H]1CC[C@]2(NC(=O)NC(C)(C)C)CC[C@]3(C)[C@H](CC[C@@H]4[C@@]5(C)CC[C@H](OC(=O)CC(C)(C)C(=O)O)C(C)(C)[C@@H]5CC[C@]43C)[C@@H]12", "strain or isolate": "IIIB", "read by": "RT activity", "value": ">0.199 µM"}
{"compound": "Cc1ncnn1-c1cc(F)ccc1CNC(=O)c1nc2n(c(=O)c1O)CCCOC21CCN(C(=O)C(=O)N(C)C)CC1", "strain or isolate": "NL4-3", "read by": "luciferase / reporter gene", "value": "≥0.1 µM"}
{"compound": "Cc1cn([C@H]2C[C@H](N=[N+]=[N-])[C@@H](CO)O2)c(=O)[nH]c1=O", "strain or isolate": "IIIB", "read by": "cell fusion / fluorescence", "value": ">10 µg/mL"}
{"compound": "CCNc1ccccc1N1CCN(C(=O)c2cc3cc(OC)ccc3[nH]2)CC1", "read by": "syncytia", "value": ">16 µM"}
{"compound": "CC(C)C1=C2[C@H]3CC[C@@H]4[C@@]5(C)CC[C@H](OC(=O)[C@H]6C[C@@H](C(=O)O)C6(C)C)C(C)(C)[C@@H]5CC[C@@]4(C)[C@]3(C)CC[C@@]2([C@@H](O)CNC(=O)C(C)(C)NC(=O)c2cc(C(C)C)[nH]n2)CC1=O", "strain or isolate": "92HT599", "read by": "p24 / ELISA", "value": "<1 µM"}
{"compound": "Cc1cccc2c(C(=O)C(=O)N3CCN(C(=O)c4ccccc4)CC3)c[nH]c12", "read by": "RT activity", "value": "<10 µM"}
{"compound": "CC(C)C1=C2[C@H]3CC[C@@H]4[C@@]5(C)CC[C@H](OC(=O)[C@H]6C[C@@H](C(=O)O)C6(C)C)C(C)(C)[C@@H]5CC[C@@]4(C)[C@]3(C)CC[C@@]2([C@@H](O)CNCC2CCCC2)CC1=O", "strain or isolate": "92HT599", "read by": "p24 / ELISA", "value": "<1 µM"}
{"compound": "O=C(C(=O)N1CCN(C(=O)c2ccccc2O)CC1)c1c[nH]c2ccccc12", "strain or isolate": "BRU", "read by": "RT activity", "value": "<10 µM"}

3 of the rows above, restated:

compound | strain or isolate | mutations | read by | value
O=C(NCc1ccc(F)cc1)c1nc2n(c(=O)c1O)CCOC21CCN(C(=O)OCc2ccccc2)C1 | NL4-3 | - | luciferase / reporter gene | 0.001–0.01 µM
Cc1ccc(S(=O)(=O)N2CCC3(CC2)OCCn2c3nc(C(=O)NCc3ccc(F)cc3-n3cnc(C)n3)c(O)c2=O)cc1 | NL4-3 | - | luciferase / reporter gene | 0.001–0.01 µM
CC(C)C1=C2[C@H]3CC[C@@H]4[C@@]5(C)CC[C@H](OC(=O)[C@H]6C[C@@H](C(=O)O)C6(C)C)C(C)(C)[C@@H]5CC[C@@]4(C)[C@]3(C)CC[C@@]2([C@@H](O)CNC(=O)c2ccc(CN3CCS(=O)(=O)CC3)cc2)CC1=O | 92HT599 | - | p24 / ELISA | <1 µM

Two numbers with a dash give a range or band. ECn: concentration that inhibits the pathogen or its effect by n%. Neighbouring rows are from separate reports.